The data set concerns Nc1nc2c(c(=O)[nH]1)N=C(CNc1ccc(C(=O)N[C@@H](CCC(=O)O)C(=O)O)cc1)CN2. The data set can be described thus: purified protein, by the assay type. The conditions noted are these: pH 7.6, 37.0 °C.

Regarding “DHFR^Thr108 (reconstructed P. falciparum DHFR) (Plasmodium falciparum K1; N108T/R59C)”, the Km worked out at 17 µM (other: substrate Km of DHFR^Thr108, as stated in text) and 16.8 ± 0.6 µM (other: substrate Km, reconstructed P.f. DHFR Thr108 (Table IV)).

Usually Km stands for the substrate concentration at which the rate is half of its maximum.

For the origin of these results see patent US6333406A, “Gene encoding protein antigens of Plasmodium falciparum and uses therefor” (priority 1994, dated 2001).
